Experimental data reported in patent publication US20220387578A1, “Peptide vaccine based on a new universal influenza a hemagglutinin head domain epitope and human monoclonal antibodies binding thereto” (published 2022).

Target: H7 HA A/Netherlands/219/2003 (H7N7), recombinant (influenza A virus)
Assay: ELISA

Work on “rFluA-20 heavy chain mutant C101A (antibody)” yielded an EC50 of 0.17 µg/mL.
